According to the supplement of paper PMC9931576:
Human monoclonal antibodies against the spike receptor-binding domain (heavy:light variable regions). IC50 against pseudoviruses bearing the spike of naturally observed variants; lower = stronger; >10 µg/ml means not reached at the top dose. No active / inactive call. The stated detection limit is 0.0005 µg/ml; values near or below 0.001 µg/ml lie at the floor of the assay.

B1: BD57-010 (protein)
chain 1: QLQLQESGPGLLKPSETLSLTCTVSGDSFGSSNFHWGWIRQPPGKGLEWVGSIYYSGSAHYNPSLKSRVTISLDTSKNQISLKLRSVTAADTAVYYCATRFWIFGLVSYFDYWGQGTLVTVSS
chain 2: DIQMTQSPSSLSASVGDRVTIPCRASQNINNYLNWYQQKPGKAPKLLIYAASSLQSGVPSRFSGSGSGTDFTLIISSLQPEDFATYYCQQTYNNVSFGGGTKVEFK
B2: BD57-008 (protein)
chain 1: EVQLVESGGGLVQPGRSLRLSCAASGFTFDDYAMHWVRQAPGKGLEWVSGISWNSGDIGYAGSVKGRFTISRDNAKNSLYLQMNSLRTEDTAFYYCAKGWLGELFGGMDYWGQGTLVTVSS
chain 2: QPVLTQSSSASASLGSSVKLTCTLNSVHSSYLIAWHQQQPGKAPRYLMKLEGSGIYNKGSGVPDRFSGSSSGADRFLTISNLQSEDEADYYCETWDSNTRVFGGGTKLTVL
B3: XGv-422 (protein)
chain 1: QVQLVQSGAEVKKPGASVKVSCKASGYTYTSYPMHWVRQAPGQRLEWMGRINAVNGNTKYSQKFQGRVSITSDTSASTAHMELSGLRFEDTGVYYCARDQVSVAGAPNDDYFYYYGMDVWGQGTTVSVSS
chain 2: SYELTQPPSVSVSPGQTARITCSGDALPKQYAYWYQQKPGQAPVMVIYKDNERPSGIPERFSGSSSGTTIRLTISGVQPEDEADYYCQSVDSSGSYVVFGGGTKLT
B4: XGv-404 (protein)
chain 1: EVQLVESGGGLIQPGGSLRLSCTASGITVSRNYMNWVRQAPGKGLEWVSMIYSGGSSFYADSVKGRFTISRDTSKNTLYLQMNSLRAEDTAVYYCARHSPHRPGEIWGQGTLVTVSS
chain 2: DIQMTQSPPSLSASVGDRVTITCQASQDISNYLNWYQQKPGKAPKLLIYDASNLEIGVPSRFSGSGSGTDFALTISSLQPEDIATYYCPQCDNLPCTFGGGTKVEI
B5: BD57-019 (protein)
chain 1: QVQLVQSGAEVKKPGASVKVSCKASGYTFTSYGISWVRQAPGQGLEWMGWISTYNDNTNYEQEFQGRVTMTTDTSTSTAYMELRSLRSDDTAVYYCARYGLYYFDRSGYYDMSPDDAFDIWGQGTMVTVSS
chain 2: QSVLTQPPSVSGAPGQRVTISCTGSSSNIGAGYDVHWYQQLPGTAPKLLIYGNSNRPSGVPDRFSGSKSGTSASLAITGLQAEDEADYYCQSYDSSLSGVVFGGGTKLTVL
B6: XGv-401 (protein)
chain 1: QVQLQESGPGLVKPSQTLSLTCTVSGGSISSDSYYWSWIRQPAGKGLEWIGRIYTRGGTNYNPSLKSRVTISVDTSKNQFSLKLSSVTAADTAVYYCAKGIAVAGTDDYYYYYGMDVWGQGTTVTVSS
chain 2: SYELTQPPSVSVSPGQTARITCSGDALPKQYAYWYQQKPGQAPVVVIYKDSERPSGIPERFSGSSSGTTVTLTISGVQAEDEADYYCQSADSRNTYLVFGGGTKLTVL
B7: BD57-009 (protein)
chain 1: EVQLVESGGGLIQPGGSLRLSCAASGVTVNRNYMSWVRQAPGKGLEWVSVIYPGGSTFYTDSVKGRFSISRDSSKNTLYLQMNNLRAEDTAVYYCARTLFDAFDIWGQGTMVTVSS
chain 2: DIQLTQSPSFLSASVGDRVTITCRASQGISIYLAWYQQKPGKAPRLLIYAASTLQSGVPSRFSGSGSGTEFTLTISSLQPEDFATYFCQQLNSYPPVTFGQGTRLEIK
B8: BD57-015 (protein)
chain 1: QEQLVESGGGVVQPGRSLRLSCAASGFTFRTHAMHWVRQAPGKGLEWVAVIWNDGSNKEYADSVKGRFTISRDNSKKTLSLQMDSLRDEDTAVYYCAREGIAAPGSASDAFDIWGQGTMVTVSS
chain 2: DIQMTQSPSSLSASVGDTVTITCRTSQTISNFLNWYQQKPGKAPKVLIYAASSLQSGVPSRFSGSGSGTDFALTISSLQYEDFATYYCQQSYSPRYTFGQGTKVEIK
B9: BD57-002 (protein)
chain 1: EVQLVESGGGLIQPGGSLRLSCVASGFSVSNNYVTWVRQAPGKGLEWVSVIYSAGSTYYADSVKGRFTISRDNSKNTLYLQMNSLSADDTAVYYCAREASRPGYNWAYYFDYWGQGTLVTVSS
chain 2: QSALTQPASVSGSPGQSITISCTGTTSDVGGYNFVSWYQHHPGKAPKVMIYDVSERPSGVSNRFSGSKSGNTASLTISGLQADDEADYYCASYTSSSTFVFGTGTKVTVL
B10: XGv-421 (protein)
chain 1: EVQLVESGGGLIQPGGSLRLSCQASGLSVNDNYMTWVRQAPGKGLQWVSVIYNGDTTYYADSVKGRFTISTDTSKNTVHLQMNSLRAADTAVYFCAREYCSGGNCYSGGGRGYGAFDIWGQGTMVTVSS
chain 2: DIQMTQSPSSVSASVGDRVTITCRASQAISSWLAWYQQKPGKAPKLLIYAASDLLGGVPSRFSGSESGTDFTLTINNLQPEDFATYYCQQSHTFPLTFGGGTKVEIK
B11: BD57-025 (protein)
chain 1: EVQLVESGGGLIQPGGSLRLSCAASGVTVSSNYMSWVRQAPGKGLEWVSLIYPGGSTYYADSVKGRFTISRDNSKNTLYLQMNSLRAEDTAVYYCARDGMGLGGADYWGQGTLVTVSS
chain 2: DIQMTQSPSSLSPSVGDRVTITCQASQDINIFLNWYQQKPGKAPKLLIYDASNLETGVPSRFSGSGSGTDFTFTISSLQPEDIATYYCQQYDNLPRTFGQGTKLEIK
B12: BD57-023 (protein)
chain 1: QITLKESGPTLVKPTQTLTLTCTFSGFSLSTGGVAVGWIRQPPGKALEWLALIYWDDDKRYSPSLKSRLSITKDTSKNQVVLTMTNMDPVDTATYYCVHSGYNAYGDWEGFDFWGQGTLVAVSS
chain 2: SYELTQPPSVSVSPGQTARITCSADTFPKQYTYWYQQKAGQAPVLVIYKDTERPSGIPERFSGSSSGTIVTLSISGVRAEDEADYYCHSADSSGAYPVVFGGGTKLTVL

molecular target: SARS-CoV-2 Omicron BA.1 spike pseudovirus; assay: pseudovirus neutralization IC50; higher = weaker neutralization
Description: (§1)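 Single-round VSV luciferase pseudovirus mixed with antibody dilutions for 1 h and put on Huh-7 cells for about a day; IC50 from the dose curve.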

Binder | pseudovirus neutralization IC50
B1 | 0.0112 µg/mL
B2 | > 10 µg/mL
B3 | 0.378 µg/mL
B4 | > 10 µg/mL
B5 | 1.49 µg/mL
B6 | 0.522 µg/mL
B7 | 0.0168 µg/mL
B8 | 0.0867 µg/mL
B9 | 0.254 µg/mL
B10 | > 10 µg/mL
B11 | 0.00119 µg/mL
B12 | 0.0231 µg/mL

molecular target: SARS-CoV-2 Omicron BA.2 spike pseudovirus; assay: as above
Description: as §1

Binder | pseudovirus neutralization IC50
B1 | 0.00895 µg/mL
B2 | > 10 µg/mL
B3 | 0.398 µg/mL
B4 | > 10 µg/mL
B5 | > 10 µg/mL
B6 | 1.4 µg/mL
B7 | 0.0222 µg/mL
B8 | 0.00329 µg/mL
B9 | 0.0005 µg/mL
B10 | > 10 µg/mL
B11 | 0.000801 µg/mL
B12 | 0.00111 µg/mL

molecular target: SARS-CoV-2 Omicron BA.2.75 spike pseudovirus; assay: as above
Description: as §1

Binder | pseudovirus neutralization IC50
B1 | 0.00205 µg/mL
B2 | > 10 µg/mL
B3 | 0.495 µg/mL
B4 | > 10 µg/mL
B5 | > 10 µg/mL
B6 | 1.63 µg/mL
B7 | > 10 µg/mL
B8 | 0.00288 µg/mL
B9 | 0.465 µg/mL
B10 | > 10 µg/mL
B11 | > 10 µg/mL
B12 | 0.0286 µg/mL

molecular target: SARS-CoV-2 Omicron BA.5 spike pseudovirus; assay: as above
Description: as §1

Binder | pseudovirus neutralization IC50
B1 | 1.45 µg/mL
B2 | > 10 µg/mL
B3 | 0.681 µg/mL
B4 | > 10 µg/mL
B5 | > 10 µg/mL
B6 | 0.928 µg/mL
B7 | 0.0228 µg/mL
B8 | 0.219 µg/mL
B9 | 0.00079 µg/mL
B10 | > 10 µg/mL
B11 | 0.00976 µg/mL
B12 | 0.00175 µg/mL

molecular target: SARS-CoV-2 Omicron BQ.1.1 spike pseudovirus; assay: as above
Description: as §1

Binder | pseudovirus neutralization IC50
B1 | 3.82 µg/mL
B2 | > 10 µg/mL
B3 | 1.06 µg/mL
B4 | > 10 µg/mL
B5 | > 10 µg/mL
B6 | 0.63 µg/mL
B7 | > 10 µg/mL
B8 | > 10 µg/mL
B9 | 0.0535 µg/mL
B10 | > 10 µg/mL
B11 | > 10 µg/mL
B12 | > 10 µg/mL

molecular target: SARS-CoV-2 Omicron XBB spike pseudovirus; assay: as above
Description: as §1

Binder | pseudovirus neutralization IC50
B1 | 4.02 µg/mL
B2 | > 10 µg/mL
B3 | 0.789 µg/mL
B4 | > 10 µg/mL
B5 | > 10 µg/mL
B6 | 1.31 µg/mL
B7 | > 10 µg/mL
B8 | 0.0168 µg/mL
B9 | > 10 µg/mL
B10 | > 10 µg/mL
B11 | > 10 µg/mL
B12 | > 10 µg/mL

molecular target: SARS-CoV-2 early D614G spike pseudovirus; assay: as above
Description: as §1

Binder | pseudovirus neutralization IC50
B1 | 0.00316 µg/mL
B2 | 0.86 µg/mL
B3 | 0.394 µg/mL
B4 | 0.169 µg/mL
B5 | 0.566 µg/mL
B6 | 1.03 µg/mL
B7 | 0.0178 µg/mL
B8 | 0.00239 µg/mL
B9 | 0.001 µg/mL
B10 | 0.0439 µg/mL
B11 | 0.00541 µg/mL
B12 | 0.0015 µg/mL
